Pooled drug test results. Numbers come from NIAID ChemDB, via PubChem.

MIC bound comes from a single tested concentration.

SMILES,method,tested at,test,target,strain,measure,agent,result
COCN1COCN(COC)C1=O,,,culture,,H37Rv,MIC,Mycobacterium tuberculosis,>100 µg/mL
CC(C)c1cc(C(C)C)c(C(=O)Nc2nnc(NCc3cccnc3)s2)c(C(C)C)c1,,,target,Polymerase,,IC50,Human cytomegalovirus,>25 µM
CCOC(=O)NC1CCCCC1,,,culture,,H37Rv,MIC,Mycobacterium tuberculosis,>100 µg/mL
Cc1ccc(S(=O)(=O)OC[C@H]2O[C@@]3(COS(=O)(=O)c4ccc(C)cc4)OC(C)(C)O[C@H]3[C@@H]2O)cc1,BACTEC,12.5 µg/mL,culture,,H37Rv,inhibition,Mycobacterium tuberculosis,-37%
CC(=O)c1c(O)ccc2c(C)cc(=O)oc12,,,culture,,H37Rv,MIC,Mycobacterium tuberculosis,>100 µg/mL
Nc1nc(-c2cccc([N+](=O)[O-])c2)c(N=Nc2ccccc2[N+](=O)[O-])s1,BACTEC,6.25 µg/mL,culture,,H37Rv,inhibition,Mycobacterium tuberculosis,0%
COc1cccc(-c2cncc(N3CCN(c4ccccc4OC)CC3)n2)c1,,,target,UL97 kinase,,IC50,Cytomegalovirus,<10 µM
CCSCCNc1nnc(NC(=O)c2cc3ccccc3s2)s1,,,target,Polymerase,,IC50,Human cytomegalovirus,>25 µM
Fc1ccc(-c2cncc(NCc3ccco3)n2)c(F)c1,,,target,UL97 kinase,,IC50,Cytomegalovirus,<10 µM
CCN(CC)Cc1cc(C)c(O)c(N=Nc2cccc3ccccc23)c1C,,6.25 µg/mL,culture,,H37Rv,inhibition,Mycobacterium tuberculosis,12%
COc1ccc2c(c1)CCCC2=O,,,culture,,H37Rv,MIC,Mycobacterium tuberculosis,>100 µg/mL
CCOC(=O)c1cnc2c(ccc3ncccc32)c1OCC,BACTEC,,culture,,H37Rv,MIC,Mycobacterium tuberculosis,≥12.5 µg/mL
Fc1ccc(N2CCCCC2)c(NC(=S)c2ccncc2)c1,kinase activity,10 µM,host protein,Tie2 (Y897S),,inhibition,,15%
O=[N+]([O-])c1ccc2c(c1)S(=O)c1ccccc1N2c1ccccc1,,,culture,,H37Rv,MIC,Mycobacterium tuberculosis,>100 µg/mL
O=C(/C=C/c1ccccc1)Nc1nnc(NCc2ccccn2)s1,,,target,Polymerase,,IC50,Human cytomegalovirus,<25 µM
O=C(O)c1cc(O)c2c(c1)[C@H]([C@H]1c3cc(C(=O)O)cc(O)c3C(=O)c3c(O[C@@H]4O[C@H](CO)[C@@H](O)[C@H](O)[C@H]4O)cccc31)c1cccc(O[C@@H]3O[C@H](CO)[C@@H](O)[C@H](O)[C@H]3O)c1C2=O,BACTEC,,culture,,H37Rv,MIC,Mycobacterium tuberculosis,≥12.5 µg/mL
Fc1ccc(N2CCN(c3cncc(-c4ccoc4)n3)CC2)c(F)c1,,,target,UL97 kinase,,IC50,Cytomegalovirus,<10 µM
CC(=O)NCCc1nc(-c2nc(C(=O)NCCCN)cs2)cs1.Cl,BACTEC,,culture,,H37Rv,MIC,Mycobacterium tuberculosis,≥12.8 µg/mL
Nc1cccc(O)c1,,,culture,,H37Rv,MIC,Mycobacterium tuberculosis,>100 µg/mL
Cc1c(N)nc([C@H](CC(N)=O)NC[C@@H](N)C(N)=O)nc1C(=O)N[C@H](C(=O)NC(C)C(O)CC(=O)NC(C(=O)NC(OC1OC(C)C(N)C(O)C1O)C(O)c1nc(-c2nc(C(=O)NCCCCN)cs2)cs1)[C@H](C)O)C(OC1OC(CO)C(O)C(O)C1OC1OC(CO)C(O)C(OC(N)=O)C1O)c1cnc[nH]1.Cl.Cl.Cl.Cl,BACTEC,12.8 µg/mL,culture,,H37Rv,inhibition,Mycobacterium tuberculosis,100%
CCOc1ccc2ccccc2c1C(=O)Nc1nnc(NCc2ccccn2)s1,,,target,Polymerase,,IC50,Human cytomegalovirus,<25 µM
Cc1cccc(-n2[nH]c(NC(=O)c3cccc(N)c3)cc2=O)c1,,,culture,,H37Rv,MIC,Mycobacterium tuberculosis,50 µg/mL
CCOC(=O)c1c2c(n3ccccc13)C(=O)c1ccccc1C2=O,resazurin,6.25 µg/mL,culture,,H37Rv,inhibition,Mycobacterium tuberculosis,100%
CN(C)c1ccc(-c2cncc(N3CCN(c4cccc(Cl)c4)CC3)n2)cc1,,,target,UL97 kinase,,IC50,Cytomegalovirus,<100 µM
c1ccc(CCCc2ccncc2)cc1,,,culture,,H37Rv,MIC,Mycobacterium tuberculosis,100 µg/mL
CCO/C(CCn1[nH]c(=O)c(Cl)c(Cl)c1=O)=N\NC(=O)C(=O)NN,BACTEC,,culture,,H37Rv,MIC,Mycobacterium tuberculosis,≥12.5 µg/mL
CCOc1ccc2ccccc2c1C(=O)Nc1nnc(NCC2CCCO2)s1,,,target,Polymerase,,IC50,Human cytomegalovirus,>25 µM
CNc1cc(Br)cc2c1C(=O)c1ccccc1C2=O,,,culture,,H37Rv,MIC,Mycobacterium tuberculosis,>100 µg/mL
COc1ccc(-c2cncc(N3CCN(c4ccccn4)CC3)n2)cc1OC,,,target,UL97 kinase,,IC50,Cytomegalovirus,<10 µM
Brc1cc[c]([Pb]([c]2ccccc2)([c]2ccccc2)[c]2ccccc2)cc1,,,culture,,H37Rv,MIC,Mycobacterium tuberculosis,>100 µg/mL
Cc1cc(S(=O)(=O)Nc2nc(N)n(-c3ccccc3)n2)c(S)cc1Cl,BACTEC,,culture,,H37Rv,MIC bound,Mycobacterium tuberculosis,>12.5 µg/mL
COc1ccc2nc(-c3cccc(Cl)c3)ccc2c1,,,culture,,H37Rv,MIC,Mycobacterium tuberculosis,100 µg/mL
O=C(c1ccccc1)c1c(CO[N+](=O)[O-])n([O-])c2ccccc2[n+]1=O,BACTEC,12.5 µg/mL,culture,,H37Rv,inhibition,Mycobacterium tuberculosis,95%
Cc1ccc(C(=O)c2ccccc2Cl)cc1,,,culture,,H37Rv,MIC,Mycobacterium tuberculosis,50 µg/mL
COc1cc(-c2ccc(N=Nc3ccc(N)nc3N)c(OC)c2)ccc1N=Nc1ccc(N)nc1N,BACTEC,,culture,,H37Rv,MIC bound,Mycobacterium tuberculosis,>12.5 µg/mL
CN(C)CC1(C)CCc2c(ccc3ccccc23)C1=O.Cl,,,culture,,H37Rv,MIC,Mycobacterium tuberculosis,25 µg/mL
Cc1ccc(-c2cncc(N3CCN(c4ccc(F)cc4F)CC3)n2)cc1,,10 µM,target,UL97 kinase,,inhibition,Cytomegalovirus,>15%
O=[N+]([O-])/N=c1/nc2scc(-c3ccc([N+](=O)[O-])cc3)n2s1,resazurin,,culture,,H37Rv,MIC bound,Mycobacterium tuberculosis,<6.25 µg/mL
O=C(Nc1nnc(NCc2ccc(F)cc2)s1)c1cc(F)cc(F)c1,,,target,Polymerase,,IC50,Human cytomegalovirus,>25 µM

Repeating the final 4 entries:

SMILES,method,tested at,test,target,strain,measure,agent,result
CN(C)CC1(C)CCc2c(ccc3ccccc23)C1=O.Cl,,,culture,,H37Rv,MIC,Mycobacterium tuberculosis,25 µg/mL
Cc1ccc(-c2cncc(N3CCN(c4ccc(F)cc4F)CC3)n2)cc1,,10 µM,target,UL97 kinase,,inhibition,Cytomegalovirus,>15%
O=[N+]([O-])/N=c1/nc2scc(-c3ccc([N+](=O)[O-])cc3)n2s1,resazurin,,culture,,H37Rv,MIC bound,Mycobacterium tuberculosis,<6.25 µg/mL
O=C(Nc1nnc(NCc2ccc(F)cc2)s1)c1cc(F)cc(F)c1,,,target,Polymerase,,IC50,Human cytomegalovirus,>25 µM

Inhibition is in % at the dose shown (toxicity tests: loss of growth or viability). ICn is the concentration giving n% inhibition. Rows are shuffled and stem from different studies. Blank or dashed fields: not listed here.